Biological target: anthrax LF (Bacillus anthracis, UniProt P15917)
Assay: biochemical
Conditions: read-out: Percent Inhibition with 33 μM of drug, LF

The chains behind the UniProt entries cited, without tags or fusion partners. Residues count along the entry.
UniProt P15917, 34-809 limits assumed: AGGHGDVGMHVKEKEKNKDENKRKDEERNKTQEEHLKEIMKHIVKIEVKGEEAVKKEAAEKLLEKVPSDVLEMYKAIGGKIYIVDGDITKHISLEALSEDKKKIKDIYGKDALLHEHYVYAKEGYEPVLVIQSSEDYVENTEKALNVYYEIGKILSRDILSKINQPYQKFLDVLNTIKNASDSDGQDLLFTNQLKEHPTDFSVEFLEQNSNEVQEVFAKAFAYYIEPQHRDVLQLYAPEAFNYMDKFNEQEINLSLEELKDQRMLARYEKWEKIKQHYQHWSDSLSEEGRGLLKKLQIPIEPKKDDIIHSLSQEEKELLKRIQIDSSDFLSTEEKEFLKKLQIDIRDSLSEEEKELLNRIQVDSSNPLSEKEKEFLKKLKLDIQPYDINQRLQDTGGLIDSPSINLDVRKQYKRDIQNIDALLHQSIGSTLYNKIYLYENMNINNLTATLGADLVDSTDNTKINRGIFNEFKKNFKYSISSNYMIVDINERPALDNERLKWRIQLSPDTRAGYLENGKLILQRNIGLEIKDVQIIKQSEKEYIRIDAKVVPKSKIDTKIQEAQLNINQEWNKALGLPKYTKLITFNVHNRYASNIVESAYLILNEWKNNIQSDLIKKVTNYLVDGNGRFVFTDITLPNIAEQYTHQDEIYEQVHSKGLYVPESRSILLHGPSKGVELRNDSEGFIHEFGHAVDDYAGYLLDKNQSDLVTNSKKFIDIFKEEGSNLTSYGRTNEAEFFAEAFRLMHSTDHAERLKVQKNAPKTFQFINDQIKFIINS

O=C(O)CCc1cc(I)c(Oc2ccc(O)c(I)c2)c(I)c1 [Thyropropic acid]
inhibition at 33 µM: 77 ± 1.07%

From paper PMC5050486 (Scientific Reports, 2016)
